Results of unrelated studies side by side (data: NIAID ChemDB).

All rows: tests in culture; organism: Candida albicans; read-out: MIC

Lines come from different laboratories, so protocols vary.

structure | strain or isolate | read by | value
CCc1ccc(-c2nc3cc(NC(=O)CCC4CCCCC4)ccc3o2)cc1 | - | - | 50 µg/mL
CC(n1ncnn1)C(O)(Cn1cncn1)c1ccccc1F | TA | - | 50 µg/mL
COc1cc(/C=N/OC(C)=O)ccc1OP1(Oc2ccc(/C=N/OC(C)=O)cc2OC)=NP(Oc2ccc(/C=N/OC(C)=O)cc2OC)(Oc2ccc(/C=N/OC(C)=O)cc2OC)=NP(Oc2ccc(/C=N/OC(C)=O)cc2OC)(Oc2ccc(/C=N/OC(C)=O)cc2OC)=N1 | - | agar diffusion / agar | >100 µg/mL
CCCCC[C@@H]1OCO[C@@]2(C)/C=C(C)/C=C/C(=O)O[C@H]([C@@H](C)[C@@H](O)[C@H](C)[C@@]3(O)C[C@@H](O[C@H]4C[C@@H](O)[C@H](O)[C@@H](C)O4)[C@H](C)[C@@H](C)O3)[C@@H](OC)/C=C/C=C(\C)C[C@H]1[C@@H]2O | 3147 | - | 100 µg/mL
COc1ccc(/C=N/NC(=O)c2nnn(-c3ccnc4c(C(F)(F)F)cccc34)c2C)cc1 | - | - | 6 µg/mL
CCCCCCCC(Cn1ccnc1)c1ccc(Cl)cc1 | - | - | 10 µg/mL
CC1CCC(C(C)C)C(OC(=O)/C=C/c2ccccc2[N+](=O)[O-])C1 | - | - | 4.68 µM
O=C(NNC(=S)Nc1ccc(F)cc1F)c1cc2ccccc2[nH]1 | ATCC 90028 | agar | 400 µg/mL
N=C(N)c1ccc(OCCCCCCOc2ccc(C(=N)N)cc2)cc1 | Ca4 | agar diffusion / agar | 22 µg/mL
CCC(=O)C1Sc2ccccc2N(C2CCCCCCC2)C1=O | ATCC 10231 | - | ≥100 µg/mL
Clc1ccc(/C(Cn2ccnc2)=N\OCc2ccccc2)cc1 | CA2 | - | 8 µg/mL
O=c1[nH][nH]c2c1C(c1ccc(F)cc1)CC(c1ccc3ccccc3c1)=C2 | - | - | 12.5 µg/mL
COc1cc(/C=N/OC(=O)CCl)ccc1OP1(Oc2ccc(/C=N/OC(=O)CCl)cc2OC)=NP(Oc2ccc(/C=N/OC(=O)CCl)cc2OC)(Oc2ccc(/C=N/OC(=O)CCl)cc2OC)=NP(Oc2ccc(/C=N/OC(=O)CCl)cc2OC)(Oc2ccc(/C=N/OC(=O)CCl)cc2OC)=N1 | - | agar diffusion / agar | >100 µg/mL
COCCn1c(-c2ccccc2)nc(=S)c(C(C)=O)c1O | - | - | >100 µg/mL
S=c1oc(C23CC4CC(CC(C4)C2)C3)nn1CN1CCN(Cc2ccccc2)CC1 | ATCC 753 | - | >400 µg/mL
CCCC(C)C(Cn1ccnc1)c1ccc(Cl)cc1Cl | - | - | 10 µg/mL
Fc1ccc(NCSc2nnc(C34CC5CC(CC(C5)C3)C4)o2)cc1 | ATCC 753 | - | 400 µg/mL
C(=C/c1cccnc1)/C1=NCCS1 | - | - | 11 µg/mL
Cc1cc(NC(=O)c2ccc(NC(=O)COc3ccc(Cl)cc3)cc2)no1 | ATCC 10231 | - | >100 µg/mL
CC(n1ccnn1)C(O)(Cn1cncn1)c1ccc(OC(F)(F)F)cc1 | TA | - | >100 µg/mL
CCC(C)C1NC(=O)C(CC(C)C)OC(=O)C(C(C)C)OC(=O)C(NC(=O)C(C(C)CC)N(C)C(C)=O)C(C)OC(=O)C(CC(C)C)N(C)C(=O)C(C)NC(=O)C(C(C)C)N(C)C(=O)C(C(C)O)NC(=O)C(CC(C)C)N(C)C1=O | ATCC 90028 | - | >50 µg/mL
Cc1cc(NC(=O)c2cccc(NC(=O)COc3cccc(Cl)c3Cl)c2)no1 | ATCC 10231 | - | >100 µg/mL
Fc1ccc(F)c(NCSc2nnc(C34CC5CC(CC(C5)C3)C4)o2)c1 | ATCC 753 | - | 400 µg/mL
O=C(CCC1CCCCC1)Nc1ccc2oc(-c3ccc(F)cc3)nc2c1 | - | - | 50 µg/mL
CNC(=S)N/N=C(\C)c1ccc(Nc2nc(C)nc3sc4c(c23)CCCC4)cc1 | - | - | 210 µg/mL
C=CCN(CC=C)c1nnc2c(cnc3ccccc32)n1 | M-3 | - | 50 µg/mL
CC1CCC(C(C)C)C(OC(=O)c2ccc(Cl)cc2Cl)C1 | - | - | 19.05 µM
CCCCCCCC(Cn1ccnc1)c1ccccc1Br | - | - | >100 µg/mL
C/C(=N\N)c1ccc(Nc2nc(C)nc3sc4c(c23)CCCC4)cc1 | - | - | 155 µg/mL
Clc1ccc(/C(Cn2ccnc2)=N/OCc2ccccc2)c(Cl)c1 | CA2 | - | 16 µg/mL
Cc1c(C(=O)/C=C/c2ccc([N+](=O)[O-])cc2)nnn1-c1ccnc2c(C(F)(F)F)cccc12 | - | - | 12.5 µg/mL
CO/N=C/c1ccc(OP2(Oc3ccc(/C=N/OC)cc3OC)=NP(Oc3ccc(/C=N/OC)cc3OC)(Oc3ccc(/C=N/OC)cc3OC)=NP(Oc3ccc(/C=N/OC)cc3OC)(Oc3ccc(/C=N/OC)cc3OC)=N2)c(OC)c1 | - | agar diffusion / agar | >100 µg/mL
CCCCCCCCCCCCCCCCCC(=O)NC1CC(O)C(O)NC(=O)C2C(O)C(C)CN2C(=O)C(C(C)O)NC(=O)C(C(O)C(O)c2ccc(O)cc2)NC(=O)C2CC(O)CN2C(=O)C(C(C)O)NC1=O | MY1208 | - | 0.5 µg/mL
CCCCCCCC(Cn1ccnc1)c1ccc(Br)cc1 | - | - | 10 µg/mL
O=C(NNC(=S)Nc1ccc(F)cc1)c1cccs1 | ATCC 10231 | agar | 400 µg/mL
CCCCn1c(-c2ccccc2)nc(=S)c(C(C)=O)c1O | - | - | >100 µg/mL
O=C(Nc1ccc2oc(-c3ccc(F)cc3)nc2c1)C1CCCCC1 | - | - | 12.5 µg/mL
CC1CCC(C(C)C)C(OC(=O)c2ccccc2[N+](=O)[O-])C1 | - | - | 5.13 µM
COc1nnc2c(cnc3ccccc32)n1 | M-3 | - | 20 µg/mL
CCC(=O)O/N=C/c1ccc(OP2(Oc3ccc(/C=N/OC(=O)CC)cc3OC)=NP(Oc3ccc(/C=N/OC(=O)CC)cc3OC)(Oc3ccc(/C=N/OC(=O)CC)cc3OC)=NP(Oc3ccc(/C=N/OC(=O)CC)cc3OC)(Oc3ccc(/C=N/OC(=O)CC)cc3OC)=N2)c(OC)c1 | - | agar diffusion / agar | >100 µg/mL
C[C@H]1[C@H](O)[C@@H](C)/C=C/C=C/C=C/C=C/C=C/C=C/C=C/[C@H](O[C@@H]2O[C@H](C)[C@@H](O)[C@H](N)[C@@H]2O)C[C@@H]2O[C@](O)(C[C@@H](O)C[C@@H](O)CC[C@H](O)[C@@H](O)C[C@@H](O)CC(=O)O[C@H]1C)C[C@H](O)[C@H]2C(=O)O | A28200 | - | 0.25 µg/mL
COc1ccc(N2CCN(Cn3nc(C45CC6CC(CC(C6)C4)C5)oc3=S)CC2)cc1 | ATCC 753 | - | 400 µg/mL
CCCCCC(Cn1ccnc1)c1ccc(Br)cc1 | - | - | 100 µg/mL
COc1ccc(/C=C\C2=NCCS2)cc1OC | - | - | >128 µg/mL
CC1CCC(C(C)C)C(OC(=O)C(C)Cl)C1 | - | - | 12.59 µM
CC(C)CC(Cn1ccnc1)c1ccc(Cl)cc1Cl | - | - | 100 µg/mL
FC(F)(F)c1ccccc1CN1CCN(Cn2nc(C34CC5CC(CC(C5)C3)C4)oc2=S)CC1 | ATCC 753 | - | >400 µg/mL
NC[C@H]1O[C@H](O[C@H]2[C@H](O)[C@@H](O[C@H]3O[C@H](CO)[C@@H](O)[C@H](N)[C@H]3O)[C@H](N)C[C@@H]2N)[C@H](O)[C@@H](O)[C@@H]1O | ATCC 2002 | broth dilution | 1.2 µg/mL
CC1CCC(C(C)C)C(OC(=O)c2ccc(Cl)cc2)C1 | - | - | 21.38 µM
Cc1ccc2c(c1)S/C(=C\C(=O)C(C)C)N2C1CCC1 | ATCC 14053 | - | >100 µg/mL
c1ccc2c(CC3=NCCS3)cccc2c1 | - | - | 46 µg/mL
Cc1cc(NC(=O)c2ccccc2NC(=O)COc2ccc(Cl)cc2)no1 | ATCC 10231 | - | >100 µg/mL
CC(n1cnnn1)C(O)(Cn1cncn1)c1ccccc1F | TA | - | >100 µg/mL
CCC(=O)/C=C1\Sc2ccccc2N1C1CCCCCC1 | ATCC 14053 | - | 25 µg/mL
COc1cc(/C=N/O)ccc1OP1(Oc2ccc(/C=N/OC(=O)c3ccccc3)cc2OC)=NP(Oc2ccc(/C=N/OC(=O)c3ccccc3)cc2OC)(Oc2ccc(/C=N/OC(=O)c3ccccc3)cc2OC)=NP(Oc2ccc(/C=N/OC(=O)c3ccccc3)cc2OC)(Oc2ccc(/C=N/OC(=O)c3ccccc3)cc2OC)=N1 | - | agar diffusion / agar | 75 µg/mL
CCc1ccc(-c2nc3cc(NC(=O)C4CCCCC4)ccc3o2)cc1 | - | - | 50 µg/mL
COc1cc(/C=N/O)ccc1OP1(Oc2ccc(/C=N/OCc3ccccc3)cc2OC)=NP(Oc2ccc(/C=N/O)cc2OC)(Oc2ccc(/C=N/OCc3ccccc3)cc2OC)=NP(Oc2ccc(/C=N/O)cc2OC)(Oc2ccc(/C=N/OCc3ccccc3)cc2OC)=N1 | - | agar diffusion / agar | >100 µg/mL
CCOC(=O)c1c(O)n(CCO)c(-c2ccccc2)nc1=S | - | - | 100 µg/mL
Cc1cc(NC(=O)c2ccccc2NC(=O)COc2ccc(Cl)cc2Cl)no1 | ATCC 10231 | - | >100 µg/mL
Cc1ccc(O)c(C(C)C)c1 | HITM 22 | - | 1 µg/mL
CN1CCN(Cn2nc(C34CC5CC(CC(C5)C3)C4)oc2=S)CC1 | ATCC 753 | - | 200 µg/mL
CCCCCCCCC(Cn1ccnc1)c1ccc(Cl)cc1Cl | - | - | 10 µg/mL
Cc1c(C(=O)N/N=C/c2ccc([N+](=O)[O-])cc2)nnn1-c1ccnc2c(C(F)(F)F)cccc12 | - | - | 25 µg/mL
Clc1ccc(/C=C\C2=NCCS2)c(Cl)c1 | - | - | 5 µg/mL
C[C@@H](n1ccnn1)[C@](O)(Cn1cncn1)c1ccc(F)cc1 | TA | - | 100 µg/mL
CCC(C)CC(C)CCCCCCCCC(=O)NC1C[C@H](O)[C@@H](O)NC(=O)[C@@H]2[C@@H](O)[C@@H](C)CN2C(=O)[C@H]([C@H](O)CC(N)=O)NC(=O)[C@H](C(O)[C@H](O)c2ccc(O)cc2)NC(=O)[C@@H]2C[C@@H](O)CN2C(=O)[C@H]([C@@H](C)O)NC1=O | MY1028 | - | 0.5 µg/mL
COc1ccccc1NC(=S)NNC(=O)c1cc2ccccc2cn1 | ATCC 10231 | agar | 25 µg/mL
Cc1c(O)cccc1C(=O)N[C@@H](CSc1ccccc1)[C@H](O)CN1C[C@H]2CCCC[C@H]2C[C@H]1C(=O)NC(C)(C)C | I170A | - | >64 µg/mL
Cc1nc(Nc2ccc(C3=NN(c4ccc([N+](=O)[O-])cc4[N+](=O)[O-])C(c4ccc([N+](=O)[O-])cc4)C3)cc2)c2c3c(sc2n1)CCCC3 | - | - | 155 µg/mL
c1ccc(CO/N=C(/Cn2ccnc2)c2ccccc2)cc1 | Y0109 | - | 64 µg/mL
Cc1cc(NC(=O)c2ccc(NC(=O)COc3ccc(Cl)cc3Cl)cc2)no1 | ATCC 10231 | - | >100 µg/mL
CCCC(=O)/C=C1\Sc2cc(OC)ccc2N1C1=CCCCCC1 | ATCC 10231 | - | >100 µg/mL
c1ccc2cc(CC3=NCCS3)ccc2c1 | - | - | 7 µg/mL
Cc1c(C(=O)N/N=C/c2ccco2)nnn1-c1ccnc2c(C(F)(F)F)cccc12 | - | - | 12.5 µg/mL
O=C(N/N=C/c1cc([N+](=O)[O-])ccc1O)c1ccc(I)cc1 | ATCC 89122 | - | >25 µg/mL
O[C@](Cn1cncn1)(Cn1cnc(/C=C/c2ccc(OCC(F)(F)C(F)F)cc2)n1)c1ccc(F)cc1F | IFO 1594 | - | 0.024 µg/mL
Cc1cc(NC(=O)c2ccc(NC(=O)COc3ccccc3)cc2)no1 | ATCC 10231 | - | >100 µg/mL
O=c1[nH][nH]c2c1C(c1ccc([N+](=O)[O-])cc1)CC(c1ccc3ccccc3c1)=C2 | - | - | 50 µg/mL

Repeating the final 6 entries:

structure	strain or isolate	read by	value
c1ccc2cc(CC3=NCCS3)ccc2c1	-	-	7 µg/mL
Cc1c(C(=O)N/N=C/c2ccco2)nnn1-c1ccnc2c(C(F)(F)F)cccc12	-	-	12.5 µg/mL
O=C(N/N=C/c1cc([N+](=O)[O-])ccc1O)c1ccc(I)cc1	ATCC 89122	-	>25 µg/mL
O[C@](Cn1cncn1)(Cn1cnc(/C=C/c2ccc(OCC(F)(F)C(F)F)cc2)n1)c1ccc(F)cc1F	IFO 1594	-	0.024 µg/mL
Cc1cc(NC(=O)c2ccc(NC(=O)COc3ccccc3)cc2)no1	ATCC 10231	-	>100 µg/mL
O=c1[nH][nH]c2c1C(c1ccc([N+](=O)[O-])cc1)CC(c1ccc3ccccc3c1)=C2	-	-	50 µg/mL

An empty or dashed field is not shown.